Measured values from several laboratories, pooled; numbers as filed in NIAID ChemDB.

Shared fields: whole-cell or culture tests; organism: HIV-1

Blank or dashed fields: not listed here.

{"structure": "Cc1cc(C#N)cc(C(=O)c2cc(Cl)ccc2OCC(=O)Nc2cnc(S(N)(=O)=O)cc2C)c1", "cell line": "HeLa + HELA CD4+", "method": "β-galactosidase", "mutations": "RT-V106A Y181C", "strain": "HXB2", "endpoint": "EC50", "result": "<0.01 µM"}
{"structure": "CC(C)[C@H](NC(=O)OCc1ccccn1)C(=O)N[C@@H](Cc1ccccc1)[C@@H](O)C[C@H](Cc1ccccc1)NC(=O)OCc1cccnc1", "cell line": "MT-4", "method": "p24", "mutations": "PR-L10R L63P", "strain": "NL4-3", "endpoint": "EC95", "result": "0.8 µM"}
{"structure": "Cc1cc(C#N)cc(C)c1Oc1nc(NC2CCC(NCc3ccccc3)CC2)nc2ccsc12", "cell line": "MT-4", "method": "MTT", "mutations": "NNRTI-resistant (RT Y188L)", "strain": "IIIB", "endpoint": "EC50", "result": ">2.98 µM"}
{"structure": "Cc1cncc(C(=O)NC(C)(C)CNCC[C@@]23CC[C@]4(C)[C@H](CC[C@@H]5[C@@]6(C)CC[C@H](OC(=O)[C@H]7C[C@@H](C(=O)O)C7(C)C)C(C)(C)[C@@H]6CC[C@]54C)C2=C(C(C)C)C(=O)C3)n1", "cell line": "MT-2", "method": "p24 / ELISA", "strain": "92HT599", "endpoint": "EC50", "result": "<1 µM"}
{"structure": "Cc1cc(/C=C/C#N)cc(C)c1Oc1nc(NC2CCN(Cc3cccc(Br)c3)CC2)nc2ccsc12", "cell line": "MT-4", "method": "MTT", "mutations": "NNRTI-resistant (RT L100I)", "strain": "IIIB", "endpoint": "EC50", "result": "0.0285 µM"}
{"structure": "Cc1cc(S(N)(=O)=O)ccc1NC(=O)COc1ccc(Cl)cc1C(=O)c1cc(F)cc(C#N)c1", "cell line": "HeLa + HELA CD4+", "method": "β-galactosidase", "mutations": "RT-K103N V108I", "strain": "HXB2", "endpoint": "EC50", "result": "<0.01 µM"}
{"structure": "Cc1noc(C)c1C(=O)NC(C)(C)CNCC[C@@]12CC[C@]3(C)[C@H](CC[C@@H]4[C@@]5(C)CC[C@H](OC(=O)[C@H]6C[C@@H](C(=O)O)C6(C)C)C(C)(C)[C@@H]5CC[C@]43C)C1=C(C(C)C)C(=O)C2", "cell line": "MT-2", "method": "p24 / ELISA", "strain": "92HT599", "endpoint": "EC50", "result": "<1 µM"}
{"structure": "C=CCOc1cc(NC(=S)OC(C)C)ccc1C#N", "cell line": "CEM", "method": "syncytia", "mutations": "RT-V106A", "endpoint": "EC50", "result": "1.447 µM"}
{"structure": "Cc1cc(C#N)cc(C(=O)c2cc(Cl)ccc2OCC(=O)Nc2ccc(OCCCN3CC=CC3)cc2C)c1", "cell line": "HeLa + HELA CD4+", "method": "β-galactosidase", "mutations": "RT-V108I Y181C", "strain": "HXB2", "endpoint": "EC50", "result": "<0.01 µM"}
{"structure": "COC[C@@H](c1ccc(C(F)(F)F)cc1)N1CCN(C2(C)CCN(C(=O)c3c(C)ncnc3C)CC2)C[C@@H]1C", "cell line": "PBMC", "mutations": "M518V F519L", "strain": "R14/S", "endpoint": "EC50", "result": "0.00082 µM"}
{"structure": "CC(C)C1=C2[C@H]3CC[C@@H]4[C@@]5(C)CC[C@H](OC(=O)[C@H]6C[C@@H](C(=O)O)C6(C)C)C(C)(C)[C@@H]5CC[C@@]4(C)[C@]3(C)CC[C@@]2(CCNC[C@@H]2CCCCN2)CC1=O", "cell line": "MT-2", "method": "p24 / ELISA", "strain": "92HT599", "endpoint": "EC50", "result": "<1 µM"}
{"structure": "CCN1c2ncc(CCOc3ccc(-c4cccc(CC(=O)O)c4)cc3C)cc2C(=O)N(C)c2cccnc21", "cell line": "C8166", "method": "p24", "mutations": "RT-K103N Y181C", "endpoint": "EC50", "result": "<0.01 µM"}
{"structure": "Cc1cc(S(N)(=O)=O)ccc1NC(=O)COc1ccc(Cl)cc1C(=O)c1cc(Cl)cc(C#N)c1", "cell line": "HeLa + HELA CD4+", "method": "β-galactosidase", "mutations": "RT-K103N V108I", "strain": "HXB2", "endpoint": "EC50", "result": "<0.01 µM"}
{"structure": "CC1CC(C)CN(S(=O)(=O)c2ccccc2[N+](=O)[O-])C1", "cell line": "HeLa", "method": "GFP / fluorescence", "strain": "AE-CMU06", "endpoint": "EC50", "result": "0.1 µM"}
{"structure": "CCC(=O)c1ccc(F)c([C@@H]2C[C@@H]2NC(=O)Nc2ccc(C#N)cn2)c1O", "cell line": "TZM-bl", "method": "β-galactosidase / luminescence", "mutations": "NNRTI-resistant (RT K103N)", "strain": "LAI", "endpoint": "EC50", "result": "0.0234 µM"}
{"structure": "Cc1cc(S(N)(=O)=O)ccc1NC(=O)COc1ccc(Cl)cc1C(=O)c1cc(F)cc(F)c1", "cell line": "HeLa + HELA CD4+", "method": "β-galactosidase", "mutations": "RT-P225H", "strain": "HXB2", "endpoint": "EC50", "result": "<0.01 µM"}
{"structure": "Cc1cc(C#N)cc(C)c1Oc1nc(NC2CCN(Cc3ccc(S(N)(=O)=O)cc3)CC2)nc2sccc12", "cell line": "MT-4", "method": "MTT", "strain": "RES056", "endpoint": "EC50", "result": "0.0387 µM"}
{"structure": "O=C(O)c1cc(-n2cccc2)ccc1Cl", "cell line": "PBMC/5.25M7", "method": "luciferase / cell fusion", "strain": "93UG065 X4 CLADE D", "endpoint": "EC90", "result": "136 µM"}
{"structure": "CCN1c2ncc(CCOc3ccc(-c4ccc(Cl)c(C(=O)O)c4)cc3C)cc2C(=O)N(C)c2cccnc21", "cell line": "C8166", "method": "p24", "mutations": "RT-K103N Y181C", "endpoint": "EC50", "result": "0.01–0.05 µM"}
{"structure": "Cc1cc(/C=C/C#N)cc(C)c1Oc1nc(NC2CCN(Cc3ccccn3)CC2)nc2ccsc12", "cell line": "MT-4", "method": "MTT", "mutations": "NNRTI-resistant (RT K103N)", "strain": "IIIB", "endpoint": "EC50", "result": "0.00533 µM"}
{"structure": "Cc1cc2[nH]cnc2cc1NC(=O)COc1ccc(Cl)cc1C(=O)c1cc(F)cc(C(F)(F)F)c1", "cell line": "HeLa + HELA CD4+", "method": "β-galactosidase", "mutations": "RT-K103N L100I", "strain": "HXB2", "endpoint": "EC50", "result": "<0.01 µM"}
{"structure": "CC(C)=CCOc1cc(NC(=S)c2ccsc2C)ccc1Cl", "cell line": "CEM + CEM-SS", "method": "cytopathic effect / XTT", "mutations": "RT-M184I", "strain": "3TC-RS (RT-M184I)", "endpoint": "EC50", "result": "0.008 µM"}
{"structure": "C#C[C@@]1(CO)C=C[C@H](n2cc(C)c(=O)[nH]c2=O)O1", "cell line": "MT-2", "method": "recombinant virus assay", "mutations": "D67N/T69N/K70R/K103N/M184V/T215F/K219Q", "strain": "Clinical isolate", "endpoint": "EC50", "result": "1.55 µM"}
{"structure": "CC(C)C1=C2[C@H]3CC[C@@H]4[C@@]5(C)CC[C@H](OC(=O)[C@H]6C[C@@H](C(=O)O)C6(C)C)C(C)(C)[C@@H]5CC[C@@]4(C)[C@]3(C)CC[C@@]2([C@@H](O)CNCC(C)(C)NC(=O)c2ccc(N3CCOCC3)cc2)CC1=O", "cell line": "MT-2", "method": "p24 / ELISA", "strain": "92HT599", "endpoint": "EC50", "result": "<1 µM"}
{"structure": "Cc1cc(C#N)cc(C)c1Oc1nc(NC2CCC(NCc3cccc(C(F)(F)F)c3)CC2)nc2ccsc12", "cell line": "MT-4", "method": "MTT", "mutations": "NNRTI-resistant (RT F227L V106A)", "strain": "IIIB", "endpoint": "EC50", "result": ">707 µM"}
{"structure": "COc1ccccc1C(=O)Nc1ccc(Cl)c(C(=O)OC(C)C)c1", "cell line": "CEM + CEM-SS", "method": "cytopathic effect / XTT", "mutations": "RT-Y181C", "strain": "UC82-R (RT-Y181C)", "endpoint": "EC50", "result": "14.2 µM"}
{"structure": "COc1ccnc2[nH]cc(C(=O)C(=O)N3CCN(C(=O)c4ccccc4)C[C@H]3C)c12", "cell line": "TZM-bl", "method": "luciferase", "strain": "QH0692", "endpoint": "EC90", "result": "2.1 µM"}
{"structure": "CCCc1cc(=O)oc2c3c(c4c(c12)OC(C)(C)CC4)O[C@@H](C)[C@H](C)[C@@H]3O", "cell line": "CEM + CEM-SS", "method": "XTT", "mutations": "RT-Y181C", "strain": "UC38-resistant (RT Y181C)", "endpoint": "EC50", "result": "0.1 µM"}
{"structure": "CCN1c2ncc(CCOc3ccc(NC(=O)CC(C)(C)C(=O)O)cc3C)cc2C(=O)N(C)c2cccnc21", "cell line": "C8166", "method": "p24", "mutations": "RT-K103N Y181C", "endpoint": "EC50", "result": "0.01–0.05 µM"}
{"structure": "C[C@H](Cn1cnc2c(N)ncnc21)OCP(=O)(O)O", "cell line": "MT-2", "method": "recombinant virus assay", "mutations": "M41L/M184V/L210W/T215Y", "strain": "Clinical isolate", "endpoint": "EC50", "result": "0.0036 µM"}
{"structure": "O=C(COc1ccc(Cl)cc1C(=O)c1ccccc1)Nc1ccc2cn[nH]c2c1", "cell line": "MT-4", "method": "cytopathic effect / propidium iodide", "mutations": "RT-Y181C", "strain": "Nevirapine-resistant (RT Y181C)", "endpoint": "EC50", "result": "0.011–0.1 µM"}
{"structure": "Cc1cc(/C=C/C#N)cc(C)c1Oc1nc(NC2CCN(Cc3ccccc3C#N)CC2)nc2ccsc12", "cell line": "MT-4", "method": "MTT", "mutations": "NNRTI-resistant (RT Y188L)", "strain": "IIIB", "endpoint": "EC50", "result": "0.124 µM"}
{"structure": "CC(C)OC(=S)Nc1ccc(Cl)c(COC(C)(C)C)c1", "cell line": "CEM", "method": "syncytia", "mutations": "RT-L100I", "endpoint": "EC50", "result": ">31.66 µM"}
{"structure": "CN1c2ccccc2C2C1C=C(C#N)C(=O)N2c1ccc([N+](=O)[O-])cc1", "cell line": "HeLa", "method": "GFP / fluorescence", "strain": "14AG", "endpoint": "EC50", "result": "0.04 µM"}
{"structure": "Cc1cc(S(N)(=O)=O)ccc1NC(=O)COc1ccc(Cl)cc1C(=O)c1cccc(C#N)c1", "cell line": "HeLa + HELA CD4+", "method": "β-galactosidase", "mutations": "RT-Y181C", "strain": "HXB2", "endpoint": "EC50", "result": "<0.01 µM"}
{"structure": "CC(C)C1=C2[C@H]3CC[C@@H]4[C@@]5(C)CC[C@H](OC(=O)[C@H]6C[C@@H](C(=O)O)C6(C)C)C(C)(C)[C@@H]5CC[C@@]4(C)[C@]3(C)CC[C@@]2(CCNCC(F)NC(=O)c2ccc(Cl)cc2)CC1=O", "cell line": "MT-2", "method": "p24 / ELISA", "strain": "92HT599", "endpoint": "EC50", "result": "<1 µM"}
{"structure": "Cc1cc(S(N)(=O)=O)ccc1NC(=O)COc1ccc(Cl)cc1C(=O)c1cccc(C#N)n1", "cell line": "MT-4", "method": "cytopathic effect / propidium iodide", "mutations": "RT-Y181C", "strain": "Nevirapine-resistant (RT Y181C)", "endpoint": "EC50", "result": "<0.01 µM"}
{"structure": "CC(C)C1=C2[C@H]3CC[C@@H]4[C@@]5(C)CC[C@H](OC(=O)[C@H]6C[C@@H](C(=O)O)C6(C)C)C(C)(C)[C@@H]5CC[C@@]4(C)[C@]3(C)CC[C@@]2([C@@H](O)CNC(=O)C(C)(C)NC(=O)c2ccc(S(C)(=O)=O)cc2)CC1=O", "cell line": "MT-2", "method": "p24 / ELISA", "strain": "92HT599", "endpoint": "EC50", "result": "<1 µM"}
{"structure": "CC(C)=CCOc1cc(NC(=S)c2ccoc2C)ccc1Cl", "cell line": "CEM + CEM-SS", "method": "cytopathic effect / XTT", "mutations": "RT-M184V", "strain": "NL4-3 (RT M184V)", "endpoint": "EC50", "result": "0.02 µM"}
{"structure": "COc1ccnc2[nH]cc(C(=O)C(=O)N3C4CCC3CN(C(=O)c3ccccc3)C4)c12", "cell line": "TZM-bl", "method": "luciferase", "strain": "AC10", "endpoint": "EC50", "result": "1.1 µM"}
{"structure": "COP(=O)(c1cc(C)cc(CCC#N)c1)c1c(C(N)=O)[nH]c2ccc(Cl)cc12", "cell line": "MT-4", "method": "cytopathic effect", "mutations": "K103N", "strain": "BH10", "endpoint": "EC50", "result": "0.0001 µM"}
{"structure": "CCN1c2ncccc2NC(=O)c2cc(CCOc3ccc(-c4ccc(CC(=O)O)cc4)cc3C)cnc21", "cell line": "C8166", "method": "p24", "strain": "IIIB", "endpoint": "EC50", "result": "<0.01 µM"}

For reference, 6 entries again:

structure	cell line	method	mutations	strain	endpoint	result
Cc1cc(/C=C/C#N)cc(C)c1Oc1nc(NC2CCN(Cc3ccccn3)CC2)nc2ccsc12	MT-4	MTT	NNRTI-resistant (RT K103N)	IIIB	EC50	0.00533 µM
COc1ccccc1C(=O)Nc1ccc(Cl)c(C(=O)OC(C)C)c1	CEM + CEM-SS	cytopathic effect / XTT	RT-Y181C	UC82-R (RT-Y181C)	EC50	14.2 µM
Cc1cc(C#N)cc(C)c1Oc1nc(NC2CCC(NCc3cccc(C(F)(F)F)c3)CC2)nc2ccsc12	MT-4	MTT	NNRTI-resistant (RT F227L V106A)	IIIB	EC50	>707 µM
CC(C)C1=C2[C@H]3CC[C@@H]4[C@@]5(C)CC[C@H](OC(=O)[C@H]6C[C@@H](C(=O)O)C6(C)C)C(C)(C)[C@@H]5CC[C@@]4(C)[C@]3(C)CC[C@@]2([C@@H](O)CNCC(C)(C)NC(=O)c2ccc(N3CCOCC3)cc2)CC1=O	MT-2	p24 / ELISA		92HT599	EC50	<1 µM
CC(C)C1=C2[C@H]3CC[C@@H]4[C@@]5(C)CC[C@H](OC(=O)[C@H]6C[C@@H](C(=O)O)C6(C)C)C(C)(C)[C@@H]5CC[C@@]4(C)[C@]3(C)CC[C@@]2([C@@H](O)CNC(=O)C(C)(C)NC(=O)c2ccc(S(C)(=O)=O)cc2)CC1=O	MT-2	p24 / ELISA		92HT599	EC50	<1 µM
Cc1cc2[nH]cnc2cc1NC(=O)COc1ccc(Cl)cc1C(=O)c1cc(F)cc(C(F)(F)F)c1	HeLa + HELA CD4+	β-galactosidase	RT-K103N L100I	HXB2	EC50	<0.01 µM

a–b is a range or a potency band. Neighbouring rows are from separate reports. ECn is the concentration giving n% inhibition of infection, replication or growth.